Results of unrelated studies side by side (data: NIAID ChemDB).

All rows: tests in culture; species: Rhinovirus

ECn: concentration that inhibits the pathogen or its effect by n%. Rows are shuffled and stem from different studies.

| SMILES | read by | strain | cell line | endpoint | result |
|---|---|---|---|---|---|
| COc1ccc(CCCOc2cc(C)c(-c3noc(C(F)F)n3)c(C)c2)nn1 | cytopathic effect | serotypes 3 4 5 9 16 18 38 66 75 67 | HeLa | EC50 | 0.03 µg/mL |
| Cc1c(-c2ccccc2)n(-c2cccc(F)c2)c2ccc(C(C)C)cc2c1=O | cytopathic effect | TYPE 89/41617-GALLO | HELA-OHIO | EC50 | 0.034 µg/mL |
| CN(C)c1nc(C(F)(F)F)nc2c1ncn2Cc1ccc(C(F)(F)F)cc1 | plaque count | Serotype 3 | M-HELA | EC50 | >8 µM |
| CCOC(=O)c1ccc(OCCCCOc2ccc(-c3snc(SC)c3C#N)cc2)cc1 | cytopathic effect | Serotype 70 (group A) | HELA-OHIO | EC50 | >2 µM |
| CN(C)c1nc(C(F)(F)F)nc2c1ncn2Cc1ccc(Cl)c(Cl)c1 | plaque count | Serotype 1B | M-HELA | EC50 | 0.12 µM |
| CCCNc1nc2ccc(OCCC3CCN(c4ccc(C)nn4)CC3)cc2s1 | cytopathic effect | Serotype 14 | MRC-5 | EC50 | >0.25 µg/mL |
| CCS(=O)(=O)c1cccnc1Oc1ccc(C(=O)c2ccccc2)cc1 | cytopathic effect | TYPE 2 | HeLa | EC50 | >10 µg/mL |
| CCOc1nc2cc(OCCC3CCN(c4ccc(C)nn4)CC3)ccc2o1 | cytopathic effect | Serotype 2 | MRC-5 | EC50 | 0.045 µg/mL |
| CS(=O)(=O)c1ccc(Cc2ccc(Sc3ccccc3)cc2)nc1 | cytopathic effect | TYPE 2 | HeLa | EC50 | 1.3 µg/mL |
| COc1cc2c(=O)c(C)c(-c3ccccc3)n(C)c2cc1C(C)C | cytopathic effect | TYPE 89/41617-GALLO | HELA-OHIO | EC50 | <0.033 µg/mL |
| CN(C)c1nc(C(F)(F)F)nc2c1ncn2Cc1ccc(Br)cc1 | plaque count | Serotype 5 | M-HELA | EC50 | >8 µM |
| CSc1nsc(-c2ccc(OCCCc3ccccc3)cc2)c1C#N | cytopathic effect | Serotype 39 (group B) | HELA-OHIO | EC50 | 1.8 µM |
| CCn1c2c(c(=O)c3cc(C(C)C)ccc31)Cc1ccccc1-2 | cytopathic effect | 16/11757 | HELA-OHIO | EC50 | 2.3 µg/mL |
| CSc1nsc(-c2ccccc2)c1C#N | cytopathic effect | Serotype 72 (group A) | HELA-OHIO | EC50 | >80 µM |
| CCOC(=O)c1ccc(OCCOc2ccc(-c3snc(SC)c3C#N)cc2)cc1 | cytopathic effect | Serotype 42 (group A) | HELA-OHIO | EC50 | >2 µM |
| CS(=O)(=O)c1ccc(Oc2ccc(C(=O)c3ccccc3)cc2)nc1 | cytopathic effect | TYPE 89 | HeLa | EC50 | 5 µg/mL |
| Cc1nc(-c2cc(C)c(OCCCc3cc(C4CC4)no3)c(C)c2)no1 | cytopathic effect | Serotype 50 | HeLa | EC50 | 0.042 µg/mL |
| CS(=O)(=O)c1ccc(Cc2ccc(Cl)c(Cl)c2)nc1 | cytopathic effect | TYPE 1A | HeLa | EC50 | <0.3 µg/mL |
| CCOC(=O)c1ccc(OCCC2CCN(c3ccc(C)nn3)CC2)cc1 | neutral red | K2207 (ICAM-1 receptor group 72) | KB | EC50 | 0.136 µM |
| CCCOc1nc2cc(OCCC3CCN(c4ccc(C)nn4)CC3)ccc2s1 | cytopathic effect | Serotype 14 | MRC-5 | EC50 | 0.041 µg/mL |
| COC(=O)c1cc(CCCOc2c(C)cc(-c3noc(C)n3)cc2C)on1 | cytopathic effect | Serotype 30 | HeLa | EC50 | 0.015 µg/mL |
| CSc1nsc(-c2ccc(OS(=O)(=O)c3ccc(C)cc3)cc2)c1C#N | cytopathic effect | Serotype 41 (group B) | HELA-OHIO | EC50 | >25 µM |
| CCOC(=O)c1ccc(OCCC2CCN(c3ccc(C)nn3)CC2)cc1 | cytopathic effect | Serotype 54 | WI-38 | EC50 | <0.1 µg/mL |
| CN(C)c1nc(C(F)(F)F)nc2c1ncn2Cc1ccc(Cl)c(NC=O)c1 | plaque count | Serotype 1B | M-HELA | EC50 | 0.56 µM |
| Cc1cc(CCCOc2c(C)cc(-c3noc(C(F)(F)F)n3)cc2C)on1 | cytopathic effect / visual reading | Isolate 42 | OHIO HELA-I | EC50 | 0.02 µg/mL |
| Cc1cc(Cl)ccc1Cn1cnc2c(N(C)C)nc(C(F)(F)F)nc21 | plaque count | Serotype 1B | M-HELA | EC50 | 0.13 µM |
| COCc1ccc(CCCOc2c(C)cc(-c3noc(C(F)F)n3)cc2C)nn1 | cytopathic effect | serotypes 3 4 5 9 16 18 38 66 75 67 | HeLa | EC80 | 0.067 µg/mL |
| Cc1c(-c2ccccc2)n(-c2ccc(F)cc2)c2ccc(C(C)C)cc2c1=O | cytopathic effect | 21/47 | HELA-OHIO | EC50 | 0.067 µg/mL |
| CCS(=O)(=O)c1ccc(Cc2ccc(Cl)c(Cl)c2)nc1 | cytopathic effect | TYPE 2 | HeLa | EC50 | 1.3 µg/mL |
| Cc1cc(CCCCCOc2c(Cl)cc(C3=NCCO3)cc2Cl)on1 | plaque count | TYPE 33 | HeLa | EC50 | 0.04 µg/mL |
| CCOc1nc2ccc(OCCC3CCN(c4ccc(Cl)nn4)CC3)cc2o1 | cytopathic effect | Serotype 2 | MRC-5 | EC50 | 0.004 µg/mL |
| CCc1ccc(CCCOc2cc(C)c(-c3noc(C(F)F)n3)c(C)c2)nn1 | cytopathic effect | serotypes 3 4 5 9 16 18 38 66 75 67 | HeLa | EC80 | 1.414 µg/mL |
| Fc1cccc(Cn2cnc3c(Nc4cccc(F)c4)nc(C(F)(F)F)nc32)c1 | plaque count | Serotype 11 | M-HELA | EC50 | 1.2 µM |
| CSc1nsc(-c2ccc(OCc3ccccc3)cc2)c1C#N | cytopathic effect | Serotype 41 (group B) | HELA-OHIO | EC50 | 32 µM |
| CN(C)c1ccc(Cn2cnc3c(N(C)C)nc(C(F)(F)F)nc32)cc1 | plaque count | Serotype 21 | M-HELA | EC50 | >8 µM |
| CSc1nsc(-c2ccc(OCCCOc3ccc(C#N)cc3)cc2)c1C#N | cytopathic effect | Serotype 14 (group A) | HELA-OHIO | EC50 | >2 µM |
| Fc1ccc(Cn2cnc3c(Nc4cccc(F)c4)nc(C(F)(F)F)nc32)cc1 | plaque count | Serotype 5 | M-HELA | EC50 | 32 µM |
| CS(=O)(=O)c1ccc(Cc2ccc(S(C)(=O)=O)cn2)cc1 | cytopathic effect | TYPE 1A | HeLa | EC50 | <2.5 µg/mL |
| CCc1nc2ccc(OCCC3CCN(c4ccc(C)nn4)CC3)cc2o1 | cytopathic effect | Serotype 14 | MRC-5 | EC50 | 0.13 µg/mL |
| COCc1cc(CCCOc2c(Cl)cc(-c3noc(C)n3)cc2Cl)on1 | cytopathic effect | Serotype 41 | HeLa | EC50 | 0.154 µg/mL |
| CN(C)c1ccc(Cc2ccc(S(C)(=O)=O)cn2)cc1 | cytopathic effect | TYPE 64 | HeLa | EC50 | >10 µg/mL |
| CSc1nsc(-c2ccc(OCc3ccccc3)cc2)c1C#N | cytopathic effect | Serotype 2 (group B) | HELA-OHIO | EC50 | 20 µM |
| Cc1cc(OCCCc2ccc(CO)nn2)cc(C)c1-c1noc(C(F)F)n1 | cytopathic effect | serotypes 3 4 5 9 16 18 38 66 75 67 | HeLa | EC80 | 1.39 µg/mL |
| CS(=O)(=O)c1ccc(NCc2ccc(Cl)c(Cl)c2)nc1 | cytopathic effect | TYPE 10 | HeLa | EC50 | 2.5 µg/mL |

The last 5 rows once more:

SMILES,read by,strain,cell line,endpoint,result
COCc1cc(CCCOc2c(Cl)cc(-c3noc(C)n3)cc2Cl)on1,cytopathic effect,Serotype 41,HeLa,EC50,0.154 µg/mL
CN(C)c1ccc(Cc2ccc(S(C)(=O)=O)cn2)cc1,cytopathic effect,TYPE 64,HeLa,EC50,>10 µg/mL
CSc1nsc(-c2ccc(OCc3ccccc3)cc2)c1C#N,cytopathic effect,Serotype 2 (group B),HELA-OHIO,EC50,20 µM
Cc1cc(OCCCc2ccc(CO)nn2)cc(C)c1-c1noc(C(F)F)n1,cytopathic effect,serotypes 3 4 5 9 16 18 38 66 75 67,HeLa,EC80,1.39 µg/mL
CS(=O)(=O)c1ccc(NCc2ccc(Cl)c(Cl)c2)nc1,cytopathic effect,TYPE 10,HeLa,EC50,2.5 µg/mL